# Results: PubChem BioAssay AID504834 (National Center for Advancing Translational Sciences (NCATS), 2011)
# The entries are a selection whose mix differs from that of the whole data set. Inconclusive results are not listed. The source made the active and inactive calls. Calls come from the whole dose curve; as a rule, active = well fitted inhibition curve with a large enough effect; inconclusive = small, poorly fitted or top-dose-only effect, or another doubt; inactive = no such curve, though single readings can be large or run the other way.
# Assay: Primary qHTS for delayed death inhibitors of the malarial parasite plastid, 96 hour incubation
# Conditions: P. falciparum luciferase reporter growth; series mostly up to 28.7 µM; activity change, negative = inhibition: at the top concentration
# % is set by controls: 0 for no effect and ±100 for the full control effect; potency is the fitted concentration of half-maximal effect.
Structure (SMILES),"activity change, negative = inhibition",Potency
C(Cc1nn[nH]n1)Cc1nn[nH]n1,inactive: 3.95%,–
O=[N+]([O-])c1ncn(CCn2cnc([N+](=O)[O-])n2)n1,inactive: 10.3%,–
O=[N+]([O-])c1ccc(O)c(/C=N/Nc2ccc([N+](=O)[O-])cc2[N+](=O)[O-])c1,inactive: 3.03%,–
O=[As](O)(c1ccccc1)c1ccc(O)cc1,–,active: 5.86 µM
O=P(Nc1nc2ccccc2s1)(c1ccccc1)c1ccccc1,inactive: 1.55%,–
C[C@H]1OP(=O)(Oc2ccccc2)[C@H](O)[C@H](O)[C@H]1N=[N+]=[N-] (stereo partly drawn),inactive: 21.1%,–
CN(C(=O)Cc1ccccc1)[C@H]1CC[C@@]2(CCCO2)C[C@@H]1N1CCCC1,inactive: 20.6%,–
O=P(Nc1ccccn1)(c1ccc(Br)cc1)c1ccc(Br)cc1,inactive: -2.84%,–
c1nnnn1CCn1cnnn1,inactive: 29.6%,–
CC(C)C(=O)NC(Sc1ccccc1)C(Cl)(Cl)Cl (stereo not drawn),inactive: 28.6%,–
CC(=O)Nc1ccc([As](=O)(O)O)c(O)c1,–,active: 1.31 µM
CC(=O)Nc1ccc(Oc2c([N+](=O)[O-])cc([N+](=O)[O-])cc2[N+](=O)[O-])cc1,inactive: 45.5%,–
CC(=O)c1ccc(N2CC2c2ccncc2)cc1 (stereo not drawn),inactive: 48.5%,–
C=C(CO)CC1CC(O)[C@]2(C)OC3CC4OC5C[C@]6(C)O[C@]7(C)CCC8OC9C[C@]%10(C)OC%11C(C)=CC(=O)OC%11CC%10OC9C[C@@H](C)C8OC7CC6O[C@]5(C)C/C=C\C4OC3CC2O1 (stereo partly drawn),–,active: 5.86 µM
C[C@H]1OP(=O)(Oc2ccccc2)C[C@@H]2O[C@@H]21 (stereo partly drawn),inactive: 37.5%,–
CC(C)(C)C(=O)NC(Sc1ccccc1)C(Cl)(Cl)Cl (stereo not drawn),inactive: 0.291%,–
CCOc1ccc(C2=NCC(CBr)S2)cc1 (stereo not drawn),inactive: 73.7% [at 1.15 µM],–
Cc1ccccc1OP(=O)(Nc1ccccn1)Oc1ccccc1C,inactive: -20.4%,–
O=c1c2cc([N+](=O)[O-])ccc2[nH]c2c([N+](=O)[O-])cc([N+](=O)[O-])cc12,inactive: 1.85%,–
O=C(C[N+]12CCC(CC1)C(OC(=O)c1ccccc1)C2)c1ccc([N+](=O)[O-])cc1 (stereo not drawn),–,active: 11.7 µM
COC(=O)c1cc2c(s1)N=C(c1ccccc1)N(C)P2(=O)N1CCOCC1 (stereo not drawn),inactive: 115%,–
O=C(OC1CN2CCC1CC2)c1ccccc1 (stereo not drawn),–,inactive

Structure (SMILES),"activity change, negative = inhibition",Potency
CCC(=O)N1C2C3N(C(=O)CC)C1C1N(C(=O)CC)C(C(N1C(=O)CC)N3C(=O)CC)N2C(=O)CC,inactive: -10.4%,–
O=C(NC1CCS(=O)(=O)C1)NP(=S)(Oc1ccccc1)Oc1ccccc1 (stereo not drawn),inactive: -18.4%,–
CCNC(=S)/N=C(\N)N[N+](=O)[O-],inactive: 25.3%,–
c1ccc(-c2nn[nH]n2)c(-c2nn[nH]n2)c1,inactive: 36.9%,–
CCOC(=O)NC(Sc1ccccc1)C(Cl)(Cl)Cl (stereo not drawn),inactive: 119%,–
Cc1ccc(NP(=O)(Oc2cccc(C)c2)Oc2cccc(C)c2)nc1,inactive: 30.6%,–
Nc1cccc2ccc([As](=O)(O)O)cc12,–,active: 2.62 µM
Cc1cc(SC(NC(=O)c2ccc(F)cc2)C(Cl)(Cl)Cl)ncn1 (stereo not drawn),inactive: 21.7%,–
CCOP(=O)(Nc1ccccc1)OCC,inactive: 1.05%,–
Cc1ccc(NP(=O)(Oc2ccccc2F)Oc2ccccc2F)nc1,inactive: 25.3%,–
C=C(C=O)C[C@@H]1C[C@H](O)C2OC3C[C@]4(C)OC5/C=C\CC6OC7C(CC=CCC6OC5CCCC4OC3CC2O1)OC1CC2OC3CC(=O)OC3C[C@@H](C)C[C@@]2(C)OC1C[C@@H]7C (stereo partly drawn),inactive: 38.6%,–
CC(=O)Nc1ccc([As](=O)(O)O)cc1,–,active: 7.38 µM
O=C(O)c1ccccc1[As](=O)(O)O,–,active: 0.329 µM
Nc1cc(N)c2nonc2c1[N+](=O)[O-],inactive: 20.4%,–
CC(C)CC(=O)NC(Sc1ccc(Cl)cc1)C(Cl)(Cl)Cl (stereo not drawn),inactive: 34.6%,–
Oc1ccccc1CNc1ccccn1,inactive: -22.7%,–
O=C(NC(Sc1ccncn1)C(Cl)(Cl)Cl)c1ccccc1 (stereo not drawn),–,active: 3.29 µM
COc1ccccc1OP(=O)(Nc1ccc(C)cn1)Oc1ccccc1OC,inactive: 46.1%,–
Cc1ccc(OP(=O)(Nc2nccs2)Oc2ccc(C)cc2)cc1,inactive: 6.85%,–
Clc1ccc(Cl)c(NC2=NCC(CBr)S2)c1 (stereo not drawn),inactive: 33.5%,–
NC(=O)c1cc([N+](=O)[O-])cc([N+](=O)[O-])c1N,inactive: 31.1%,–
Cc1ccc(N/C(=N/P(=O)(N2CCOCC2)N2CCOCC2)N2CCOCC2)cc1,inactive: 17.6%,–

Structure (SMILES),"activity change, negative = inhibition",Potency
CN(C)C(=O)OCCc1n(C)cc[n+]1C,inactive: -0.57%,–
CC1CCN(C(=O)Oc2c(Cl)cc(Cl)c3cccnc23)CC1,inactive: 67.6%,–
CCN(/C(=N/P(=O)(N1CCOCC1)N1CCOCC1)N1CCOCC1)c1ccc(OC)cc1,inactive: 10.8%,–
CC(=O)N1C2C3N(C(C)=O)C1C1N(C(C)=O)C(C(N1C(C)=O)N3C(C)=O)N2C(C)=O,inactive: 19.8%,–
O=[N+]([O-])c1cccc2n[nH]nc12,inactive: -15.4%,–
Cc1ccc(NP(=O)(Oc2ccccc2)Oc2ccccc2)nc1,inactive: 2.06%,–
CCc1nc2c(n1)c1c(non1O)c1c2no[n+]1[O-],–,active: 4.65 µM
COc1ccc(C2=NCC(CBr)S2)cc1 (stereo not drawn),inactive: 1.5%,–
O=[N+]([O-])c1cccc(NC2=NCC(CBr)S2)c1 (stereo not drawn),inactive: -1.73%,–
CC(C)(C)C(=O)NC(Sc1ccncn1)C(Cl)(Cl)Cl (stereo not drawn),inactive: -15.7%,–
Cn1c(=O)[nH]c(=O)c2c1nc(Br)n2Cc1ccccc1,–,active: 13.1 µM
O=C(Nc1cc([As](=O)(O)O)ccc1O)c1ccccc1,–,active: 10.4 µM
O=[N+]([O-])c1ccc(Nc2ccc(Oc3ccc([N+](=O)[O-])cc3[N+](=O)[O-])cc2)c([N+](=O)[O-])c1,inactive: -5.94%,–
Cc1cc(SC(NC=O)C(Cl)(Cl)Cl)ncn1 (stereo not drawn),inactive: -29.6%,–
O=P(Nc1ccccn1)(c1cccc2ccccc12)c1cccc2ccccc12,inactive: -1.89%,–
CCOC(=O)Nc1cccc([As](=O)(O)O)c1,–,active: 3.29 µM
Cc1cc(SC(NC(=O)c2ccccc2)C(Cl)(Cl)Cl)nc(C(C)C)n1 (stereo not drawn),inactive: -11.7%,–
CCOC(=O)Nc1ccc([As](=O)(O)O)c(O)c1,–,active: 1.31 µM
CCOC(=O)c1ccc(NC(=O)C(C)(CCl)SC)cc1 (stereo not drawn),inactive: 64.5%,–
O=C(OC1CN2CCC1CC2)c1cccc([N+](=O)[O-])c1 (stereo not drawn),inactive: 16.2%,–
O=C(Nc1ccncc1[N+](=O)[O-])c1ccc([N+](=O)[O-])cc1[N+](=O)[O-],inactive: -9.03%,–
COP1(=S)c2c(C)nn(CCC#N)c2N=C(c2ccc(F)cc2)N1C (stereo not drawn),inactive: -12.1%,–

Structure (SMILES),"activity change, negative = inhibition",Potency
COc1cc(I)ccc1[As](=O)(O)O,–,active: 4.15 µM
O=C(OC1CN2CCC1CC2)C12CC3CC(CC(C3)C1)C2 (stereo not drawn),inactive: 18.4%,–
Cc1cc(=O)[nH]c(N[N+](=O)[O-])n1,inactive: 65.3%,–
Cc1c2c(nc3ccccc13)SC(C(Cl)Cl)C2 (stereo not drawn),inactive: 18.8%,–
CC(C)NC(=O)NP(=O)(Oc1ccccc1)Oc1ccccc1,inactive: -1.89%,–
O=[N+]([O-])c1cc([N+](=O)[O-])c(-c2ccn[nH]2)s1,inactive: -96.4%,–
CC(C)c1ccc(OP(=O)(Nc2ccccn2)Oc2ccccc2F)cc1 (stereo not drawn),inactive: -20.5%,–
ClCCSc1nnc(-c2cccnc2)o1,inactive: 1.2%,–
Cc1ccc2nc3c(c(C)c2c1)CC(C(Cl)Cl)S3 (stereo not drawn),inactive: -5.4%,–
Cc1ccc(OP(=O)(Nc2ccc([N+](=O)[O-])cn2)Oc2ccc(C)cc2)cc1,inactive: 6.02%,–
O=[As](O)(c1ccc(O)cc1)c1ccccc1O,–,active: 3.7 µM
C[As](=O)(O)c1cccc(C(=O)O)c1,inactive: 48.3%,–
O=[N+]([O-])c1ccc2c(c1)nnn2O,inactive: -3.47%,–
N#CCCN(C(=O)COC(=O)C(O)(c1ccccc1)c1ccccc1)c1ccc(F)cc1,inactive: -12.4%,–
CCOP1(=S)c2c(C)nn(CCC#N)c2N=C(c2ccc(F)cc2)N1C (stereo not drawn),inactive: 106%,–
NC(=O)Nc1ccc([As](=O)(O)O)cc1,–,active: 9.53 µM
O=C(O)COc1ccc([As](=O)(O)O)cc1[N+](=O)[O-],inactive: -6.47%,–
Nc1ccccc1[As](=O)(O)c1ccccc1,–,active: 14.7 µM
CCOP1(=S)c2c(C)nn(CCC#N)c2N=C(c2ccccc2F)N1C (stereo not drawn),inactive: 2.64%,–
O=P(Nc1nccs1)(Oc1ccccc1)Oc1ccccc1,inactive: -8.34%,–
O=P(Nc1nccs1)(c1ccccc1)c1nc2ccccc2s1 (stereo not drawn),inactive: -13.2%,–
COc1cc(C2NCCC3(OCCO3)C2(C)C)cc(OC)c1OC (stereo not drawn),inactive: 0%,–

Structure (SMILES),"activity change, negative = inhibition",Potency
CCOP(=O)(Nc1cccc2ccccc12)OCC,inactive: -19.9%,–
Nc1cccc2c([As](=O)(O)O)cccc12,–,active: 2.08 µM
Cc1cccc(OCC(=O)OC2CN3CCC2CC3)c1 (stereo not drawn),inactive: 81.3%,–
O=[As](O)(O)c1cccnc1,–,active: 10.4 µM
CS(=O)(=O)c1ccc(Cl)c(NC(=O)COC(=O)C(O)(c2ccccc2)c2ccccc2)c1,inactive: -20.4%,–
O=C(OC1CN2CCC1CC2)c1ccc(Cl)cc1 (stereo not drawn),inactive: 0%,–
O=[As](O)(c1ccccc1Br)c1ccccc1Br,inactive: 0.649%,–
C=C(C=O)CC1CC(O)[C@]2(C)OC3CC4OC5C[C@]6(C)O[C@]7(C)CCC8OC9C[C@]%10(C)OC%11C(C)=CC(=O)OC%11CC%10OC9C[C@@H](C)C8OC7CC6O[C@]5(C)CC5OC5C4OC3CC2O1 (stereo partly drawn),–,active: 4.15 µM
CC(C)/C=N\N=C(\N)N[N+](=O)[O-],inactive: -29.6%,–
COc1ccccc1CNC(=O)COC(=O)C(O)(c1ccccc1)c1ccccc1,inactive: -6.82%,–
Clc1n[nH]nc1-c1nn[nH][15n]1,inactive: 96.4%,–
CC(C)(C)C(=O)NC(Sc1ncccn1)C(Cl)(Cl)Cl (stereo not drawn),inactive: -8.32%,–
CCOP(=O)(Nc1ccc(C)cn1)OCC,inactive: 49.5%,–
CCC1=CC2Cc3nc4ccc(Cl)cc4c(N)c3C(C1)C2 (stereo not drawn),–,active: 1.04 µM
Cc1ccc(OCC(=O)OC2CN3CCC2CC3)cc1 (stereo not drawn),inactive: 0.715%,–
NS(=O)(=O)c1cccc(NC(=O)COC(=O)C(O)(c2ccccc2)c2ccccc2)c1,inactive: -10.4%,–
O=P1(Nc2ccc(Br)cn2)COc2ccccc2OC1,inactive: 31.1%,–
O=C(/C=C/c1ccccc1)OC1CN2CCC1CC2 (stereo not drawn),inactive: -5.65%,–
Cc1nn(-c2ccccc2)c2c1P(=O)(N1CCOCC1)N(C)C(c1ccccc1)=N2 (stereo not drawn),inactive: 6.15%,–
Cc1ccc(C(=O)OC2CN3CCC2CC3)cc1 (stereo not drawn),inactive: 37.9%,–
